Results of unrelated studies side by side (data: NIAID ChemDB).

All rows: toxicity to cultured cells; cell line: MOLT-4; endpoint: CC50

Two numbers with a dash give a range or band. Blank or dashed fields: not listed here. Conditions beyond the fields shown may differ between rows. CCn is the concentration with n% toxicity to the cells.

| structure | read by | setting | result |
|---|---|---|---|
| Nc1ncnc2c1ncn2[C@H]1C[C@@H](O)[C@H](O)[C@@H]1O | - | - | 4.65 µM |
| Cn1cc(C(=O)O)c(=O)c2cc(F)c(N3CC=C(c4ccccc4)CC3)c(C(F)(F)F)c21 | - | - | 1.6 µM |
| O=C1C=CC(=C(c2ccc(O)cc2)c2ccc(O)cc2)C=C1 | - | - | >100 µg/mL |
| COc1ccc2ccc3c(c2c1)OC1(CCN(Cc2ccc(C#N)cc2)CC1)NC3=O | MTT | - | 1300 µM |
| O=C(O)c1cn(-c2ccc(Cn3cncn3)cc2)c2c(OC(F)F)c(N3CC=C(c4ccccc4)CC3)c(F)cc2c1=O | - | - | 0.22 µM |
| CC(C)CCCCCCCCCCCN(C)OP(=O)(O)N(CC(N)=O)P(=O)(O)OC1C(OC[C@H]2O[C@@H](n3ccc(=O)[nH]c3=O)[C@H](O)[C@@H]2O)=C(CO)C(O)C1O | - | - | ~6 µM |
| CC[C@@H]1/C=C(\C)C[C@H](C)C[C@H](OC)[C@H]2O[C@@](O)(C(=O)C(=O)N3CCCC[C@H]3C(=O)O[C@H](/C(C)=C/[C@H]3CC[C@H](O)[C@H](OC)C3)[C@H](C)[C@@H](O)CC1=O)[C@H](C)C[C@@H]2OC | - | - | 30 µg/mL |
| O[C@@H]1[C@H](O)CO[C@H]1n1c(Br)nc2cc(Cl)c(Cl)cc21 | - | - | 47 µM |
| COC(=O)[C@@H](NC(=O)[C@@H](NC(=O)CNC[C@H](O)[C@H](Cc1ccccc1)NC(=O)[C@H](C)NC(=O)[C@H](C)NC(=O)OCc1ccccc1)C(C)C)C(C)C | - | - | >100 µM |
| CCCNc1nc(N)nc2c1ncn2[C@H]1C[C@H](O)[C@@H](CO)S1 | - | - | ~100 µM |
| N#Cc1c(C2CCNCC2)cc(-c2c(O)cccc2OCC2CC2)nc1N | WST | - | 11 µM |
| COP(=O)(c1cc(C)cc(CCC#N)c1)c1c(C(N)=O)[nH]c2ccc(Cl)c(F)c12 | MTS | - | 16.6 µM |
| CCn1cc(C(=O)O)c(=O)c2cc(F)c(N3CCN(c4ccccc4OC)CC3)c(OC(F)F)c21 | - | - | 6.6 µM |
| COc1ccc2[nH]c(=O)c(CN(Cc3cccnc3)S(=O)(=O)c3cccc4nsnc34)cc2c1 | MTT | - | >1 µM |
| Oc1cc2c(cc1O)C1c3ccc(O)c(O)c3CC[C@]1(O)C2 | MTT | - | 40 µM |
| CC(C)(C)NC(=O)[C@@H]1CCCN1C(=O)[C@@H](O)[C@H](Cc1ccccc1)NC(=O)[C@H](CC(N)=O)NC(=O)OCc1ccccc1 | - | - | >40 µM |
| CC(C)Nc1nc2cc(Cl)c(Cl)cc2n1[C@H]1OC[C@H](O)[C@@H]1O | - | - | 15 µM |
| Cn1cc(C(=O)O)c(=O)c2cc(F)c(N3CC=C(c4ccccc4)CC3)c(C(F)(F)F)c21 | - | - | >1 µM |
| Cn1c2ccccc2c(=O)c2c(O)cccc21 | - | - | 14.8 µg/mL |
| O=C(CCl)/C(=N\O)c1ccc(Cl)cc1 | - | 24 h | 5 µM |
| O=S(=O)(c1cccc2cnccc12)N1CCNCC1 | - | - | 8.4 µg/mL |
| Nc1nc2c(ncn2COC(CO)CO)c(=O)[nH]1 | - | - | 35–72 µM |
| C=CCSS/C=C/CS(=O)CC=C | MTT | - | 1.88 µM |

2 of the rows above, restated:

structure,read by,setting,result
Oc1cc2c(cc1O)C1c3ccc(O)c(O)c3CC[C@]1(O)C2,MTT,-,40 µM
CC(C)Nc1nc2cc(Cl)c(Cl)cc2n1[C@H]1OC[C@H](O)[C@@H]1O,-,-,15 µM